Source: paper PMC9569420 (Communications Biology, 2022)

Assays:
MELK = biological target: T1, MELK (Homo sapiens, UniProt Q14680); assay: HotSpot kinase assay; type: biochemical; conditions: 10µM
T1 construct: purchased Reaction Biology Corporation

OSR1/OXSR1 = biological target: T2, OSR1/OXSR1 (Homo sapiens, UniProt O95747); assay: HotSpot kinase assay; type: biochemical; conditions: 10µM
T2 construct: purchased Reaction Biology Corporation

P38b/MAPK11 = biological target: T3, P38b/MAPK11 (Homo sapiens, UniProt Q15759); assay: HotSpot kinase assay; type: biochemical; conditions: 10µM
T3 construct: purchased Reaction Biology Corporation

P38g = biological target: T4, P38g (Homo sapiens, UniProt P53778); assay: HotSpot kinase assay; type: biochemical; conditions: 10µM
T4 construct: purchased Reaction Biology Corporation

PKA = biological target: T5, PKA (Homo sapiens, UniProt P17612); assay: HotSpot kinase assay; type: biochemical
T5 construct: purchased Reaction Biology Corporation

PLK2 = biological target: T6, PLK2 (Homo sapiens, UniProt Q9NYY3); assay: HotSpot kinase assay; type: biochemical; conditions: 10µM
T6 construct: purchased Reaction Biology Corporation

PLK3 = biological target: T7, PLK3 (Homo sapiens, UniProt Q9H4B4); assay: HotSpot kinase assay; type: biochemical; conditions: 10µM
T7 construct: purchased Reaction Biology Corporation

RSK1 = biological target: T8, RSK1 (Homo sapiens, UniProt Q15418); assay: HotSpot kinase assay; type: biochemical; conditions: 10µM
T8 construct: purchased Reaction Biology Corporation

RSK3 = biological target: T9, RSK3 (Homo sapiens, UniProt Q15349); assay: HotSpot kinase assay; type: biochemical; conditions: 10µM
T9 construct: purchased Reaction Biology Corporation

RSK4 = biological target: T10, RSK4 (Homo sapiens, UniProt Q9UK32); assay: HotSpot kinase assay; type: biochemical; conditions: 10µM
T10 construct: purchased Reaction Biology Corporation

SNRK = biological target: T11, SNRK (Homo sapiens, UniProt Q9NRH2); assay: HotSpot kinase assay; type: biochemical; conditions: 10µM
T11 construct: purchased Reaction Biology Corporation

SSTK/TSSK6 = biological target: T12, SSTK/TSSK6 (Homo sapiens, UniProt Q9BXA6); assay: HotSpot kinase assay; type: biochemical; conditions: 10µM
T12 construct: purchased Reaction Biology Corporation

TBK1 = biological target: T13, TBK1 (Homo sapiens, UniProt Q9UHD2); assay: HotSpot kinase assay; type: biochemical; conditions: 10µM
T13 construct: purchased Reaction Biology Corporation

TLK1 = biological target: T14, TLK1 (Homo sapiens, UniProt Q9UKI8); assay: HotSpot kinase assay; type: biochemical; conditions: 10µM
T14 construct: purchased Reaction Biology Corporation

TLK2 = biological target: T15, TLK2 (Homo sapiens, UniProt Q86UE8); assay: HotSpot kinase assay; type: biochemical; conditions: 10µM
T15 construct: purchased Reaction Biology Corporation

TXK = biological target: T16, TXK (Homo sapiens, UniProt P42681); assay: HotSpot kinase assay; type: biochemical; conditions: 10µM
T16 construct: purchased Reaction Biology Corporation

TYK1/LTK = biological target: T17, TYK1/LTK (Homo sapiens, UniProt P29376); assay: HotSpot kinase assay; type: biochemical; conditions: 10µM
T17 construct: purchased Reaction Biology Corporation

ULK1 = biological target: T18, ULK1 (Homo sapiens, UniProt O75385); type: biochemical; conditions: 10µM
T18 construct: purchased Reaction Biology Corporation

ULK2 = biological target: T19, ULK2 (Homo sapiens, UniProt Q8IYT8); assay: HotSpot kinase assay; type: biochemical; conditions: 10µM
T19 construct: purchased Reaction Biology Corporation

ULK3 = biological target: T20, ULK3 (Homo sapiens, UniProt Q6PHR2); assay: HotSpot kinase assay; type: biochemical; conditions: 10µM
T20 construct: purchased Reaction Biology Corporation

mTOR/FRAP1 = biological target: T21, mTOR/FRAP1 (Homo sapiens, UniProt P42345); assay: HotSpot kinase assay; type: biochemical; conditions: 10µM
T21 construct: purchased Reaction Biology Corporation

VSV-S [1] = type: cell-based, VSV pseudotyped with SARS-CoV-2 spike
VSV-S [2] = type: cell-based, VSV pseudotyped with SARS-CoV-2 spike; remark: listed apart in the source
VSV-S [3] = type: cell-based, VSV pseudotyped with SARS-CoV-2 spike; remark: listed apart in the source
SARS-CoV-2 (WA1/2020) = assay: SARS-CoV-2 infection of Huh-7.5 cells (nucleocapsid staining); conditions: 24h

SMILES: CO[C@@H]1[C@H](N(C)C(=O)CCC(=O)NCc2cn(CCCS(=O)(=O)O)nn2)C[C@H]2O[C@]1(C)n1c3ccccc3c3c4c(c5c6ccccc6n2c5c31)C(=O)NC4 [CIMSS]
- % Enzyme Activity (relative to DMSO controls) (MELK): 1.31%
- % Enzyme Activity (relative to DMSO controls) (OSR1/OXSR1): 53.02%
- % Enzyme Activity (relative to DMSO controls) (P38b/MAPK11): 83.74%
- % Enzyme Activity (relative to DMSO controls) (P38g): 29.80%
- fold less effective than staurosporine (IC50) (PKA): ~ 46 fold
- % Enzyme Activity (relative to DMSO controls) (PLK2): 26.59%
- % Enzyme Activity (relative to DMSO controls) (PLK3): 93.76%
- % Enzyme Activity (relative to DMSO controls) (RSK1): 2.95%
- % Enzyme Activity (relative to DMSO controls) (RSK3): 3.24%
- % Enzyme Activity (relative to DMSO controls) (RSK4): 6.54%
- % Enzyme Activity (relative to DMSO controls) (SNRK): 72.07%
- % Enzyme Activity (relative to DMSO controls) (SSTK/TSSK6): 94.64%
- % Enzyme Activity (relative to DMSO controls) (TBK1): 1.90%
- % Enzyme Activity (relative to DMSO controls) (TLK1): 25.57%
- % Enzyme Activity (relative to DMSO controls) (TLK2): 66.39%
- % Enzyme Activity (relative to DMSO controls) (TXK): 3.62%
- % Enzyme Activity (relative to DMSO controls) (TYK1/LTK): 6.71%
- % Enzyme Activity (relative to DMSO controls) (ULK1): 13.46%
- % Enzyme Activity (relative to DMSO controls) (ULK2): 13.54%
- % Enzyme Activity (relative to DMSO controls) (ULK3): 11.94%
- % Enzyme Activity (relative to DMSO controls) (mTOR/FRAP1): 107.76%
- VSV-S plaques relative to DMSO control (VSV-S [1]): 69 and 76.6 and 68.08 and 66.7
- VSV-S plaques relative to DMSO control (VSV-S [2]): 79.7 and 84 and 70.9 and 80.4
- VSV-S plaques relative to DMSO control (VSV-S [2]; conc 1): 77.65 and 67.02 and 67.4 and 81.1
- VSV-S plaques relative to DMSO control (VSV-S [2]; conc 10): 61.7 and 52.1 and 52.57 and 56
- VSV-S plaques relative to DMSO control (VSV-S [2]; conc 50): 41.48 and 42.55 and 42.2 and 40
- VSV-S plaques relative to DMSO control (VSV-S [2]; conc 100): 12.76 and 15.95 and 8 and 9.1
- infectious viral yields relative to DMSO control (VSV-S [3]): 39.3 and 47.1
- infectious viral yields relative to DMSO control (VSV-S [3]; conc 10): 28 and 34.8
- infectious viral yields relative to DMSO control (VSV-S [3]; conc 50): 28 and 26
- infectious viral yields relative to DMSO control (VSV-S [3]; conc 100): 25 and 24.2
- infection (SARS-CoV-2 positive cells relative to the DMSO control) (SARS-CoV-2 (WA1/2020); 1.5625 uM): 94.43% and 80.34% and 112.8366%
- infection (SARS-CoV-2 positive cells relative to the DMSO control) (SARS-CoV-2 (WA1/2020); 3.125 uM): 117.6404% and 65.81% and 78.32%
- infection (SARS-CoV-2 positive cells relative to the DMSO control) (SARS-CoV-2 (WA1/2020); 25 uM): 43.9% and 23.99% and 23%
- infection (SARS-CoV-2 positive cells relative to the DMSO control) (SARS-CoV-2 (WA1/2020); 50 uM): 18.57% and 11.45% and 20.69%
- infection (SARS-CoV-2 positive cells relative to the DMSO control) (SARS-CoV-2 (WA1/2020); MOI 0.25, 0.78125 uM): 85.81% and 65.46% and 126.7822%

Values joined by “and” are separate entries in the source; they are usually repeats but may differ in a detail not shown here. Equal values may be shown once. Read-outs that look alike come from different tables or passages of the source.
